Molecules are shown by their SMILES. Several values for one entry are separate records, joined by “and”; a condition that tells them apart may be missing. Identical values can stand only once.

The target of assay [1] is A(H1N1)pdm09 polymerase complex PA E23K+I38T (Influenza A virus, UniProt C3W5S0, E23K/I38T). As to the kind of experiment: Minireplicon luciferase reporter assay, BXA susceptibility. The note with it: 5 nM BXA; E23K+I38T complex, A(H1N1)pdm09.
Assay [2] deals with A(H1N1)pdm09 polymerase complex PA E23K. The description is as above. The note with it: 5 nM BXA; E23G/K complexes, A(H1N1)pdm09.
Assay [3] deals with A(H3N2) polymerase complex PA E23K+I38T (Influenza A virus, UniProt P31343, E23K/I38T, cells depend on it). The description is as above. The note with it: 5 nM BXA; E23K+I38T complex, A(H3N2).
In assay [4] the test system is A(H1N1)pdm09 polymerase complex PA WT. The description is as above. The note with it: 5 nM BXA; WT complexes of A(H1N1)pdm09 and A(H3N2); normalized to I38T complexes.
Assay [5] addresses A(H3N2) polymerase complex PA E23K (Influenza A virus, UniProt P31343, E23K, cells depend on it). The assay is described as above. The note with it: 5 nM BXA; E23K complex, A(H3N2); not statistically significant.
Assay [6] concerns rg-A/Texas/71/2017 (H3N2) PA I38T. The experiment in a line: Plaque reduction assay, BXA susceptibility. The following applies: read-out: BXA susceptibility in the plaque reduction assay (EC50 ± SEM), MDCK cells, 72 or 96 hpi.
In assay [7] the test system is rg-A/California/04/2009 (H1N1)pdm09 PA E23K+I38T. As to the kind of experiment: Plaque reduction assay, BXA susceptibility. The following applies: read-out: BXA susceptibility in the plaque reduction assay (EC50 ± SEM), MDCK cells, 72 or 96 hpi.
Assay [8] concerns rg-A/Texas/71/2017 (H3N2) PA E23G+I38T. The experiment in a line: Plaque reduction assay, BXA susceptibility. The note with it: read-out: BXA susceptibility in the plaque reduction assay (EC50 ± SEM), MDCK cells, 72 or 96 hpi.
Assay [9] relates to rg-A/Texas/71/2017 (H3N2) PA E23K. As to the kind of experiment: Plaque reduction assay, BXA susceptibility. The note with it: read-out: BXA susceptibility in the plaque reduction assay (EC50 ± SEM), MDCK cells, 72 or 96 hpi.
Assay [10] concerns rg-A/Texas/71/2017 (H3N2) PA E23G. The experiment in a line: Plaque reduction assay, BXA susceptibility. The following applies: read-out: BXA susceptibility in the plaque reduction assay (EC50 ± SEM), MDCK cells, 72 or 96 hpi.
The test system of assay [11] is rg-A/California/04/2009 (H1N1)pdm09 PA E23K. As to the kind of experiment: Plaque reduction assay, BXA susceptibility. The note with it: read-out: BXA susceptibility in the plaque reduction assay (EC50 ± SEM), MDCK cells, 72 or 96 hpi.
Assay [12] concerns rg-A/California/04/2009 (H1N1)pdm09 PA I38T. The experiment in a line: Plaque reduction assay, BXA susceptibility. The note with it: read-out: BXA susceptibility in the plaque reduction assay (EC50 ± SEM), MDCK cells, 72 or 96 hpi.
In assay [13] the test system is rg-A/Texas/71/2017 (H3N2) PA E23K+I38T. As to the kind of experiment: Plaque reduction assay, BXA susceptibility. The following applies: read-out: BXA susceptibility in the plaque reduction assay (EC50 ± SEM), MDCK cells, 72 or 96 hpi.
In assay [14] the test system is rg-A/California/04/2009 (H1N1)pdm09 PA E23G+I38T. As to the kind of experiment: Plaque reduction assay, BXA susceptibility. The note with it: read-out: BXA susceptibility in the plaque reduction assay (EC50 ± SEM), MDCK cells, 72 or 96 hpi.

With `O=C1c2c(O)c(=O)ccn2N([C@@H]2c3ccccc3SCc3c2ccc(F)c3F)[C@@H]2COCCN12`, the “polymerase complex inhibition by BXA” value in [1] was “approximately 35%”. Besides, the “polymerase complex activity inhibited” value is 40–74% in [2], 87%–98% in [4] and 14% in assay [5]. Moreover, in [3], the “BXA susceptibility of polymerase complex” value is reported as “not BXA susceptible”. Also, the EC50 was 69.8 nM in assay [6]; 48.3 nM in [7]; 131 nM in [8]; 5.04 nM and 5 nM in [9]; 2.12 nM in assay [10]; 2.8 nM and 2.78 nM in assay [11]. Further, the EC50 in assay [12] was 18.3 nM and 18.2 nM; in [13] it was 402 nM; in [14], 30.4 nM.

The values above are taken from publication PMC9312377.
